Earlier results, collected in publication PMC11394807.

Target: Spike protein (SARS-CoV-2) (UniProt P0DTC2)

Substance: CD4 (from UniProt P01730)
- Kd: 27 nM
